From patent publication US20240002434A1, “METHODS OF INACTIVATING VIRAL CONTAMINANTS” (ICHNOS SCIENCES SA, priority 2017, published 2024)

Experiment: Cell based functional assay of BEAT®2
Procedure: Some samples of the ones described above, were selected to be tested by surface plasmon resonance (Table 37). […] In addition, cell based functional assay were also performed to directly verify the impact of high pH on BEAT®2 molecule activity.
The half maximal effective concentration (EC50) were determined based on the dose-response curves. The EC50 values obtained allowed to determine the relative potency of each sample tacking as reference the sample with high pH incubation time equal to zero.

B1: BEAT ®2 (protein)
chain 1: DIQMTQSPSSLSASVGDRVTITCQASQDVITSVAWYQQKPGKAPKLLIYSASYRYTGVPSRFSGSGSGTDFTFTISSLQPEDIATYYCQQHYTIPLTFGQGTKLEIKRTVAAPSVFIFPPSDEQLKSGTASVVCLLNNFYPREAKVQWKVDNALQSGNSQESVTEQDSKDSTYSLSSTLTLSKADYEKHKVYACEVTHQGLSSPVTKSFNRGEC
chain 2: QVTLKESGPTLVKPTQTLTLTCTFSGLSLSTSGKGVGWIRQPPGKALEWLAHIWWDDDKRYNPALKSRLTITKDTSKNQVVLTMTNMDPVDTATYYCARIELGRSYVMDYWGQGTLVTVSSASTKGPSVFPLAPSSKSTSGGTAALGCLVKDYFPEPVTVSWNSGALTSGVHTFPAVLQSSGLYSLSSVVTVPSSSLGTQTYICNVNHKPSNTKVDKKVEPKSCDKTHTCPPCPAPEAAGGPSVFLFPPKPKDTLMISRTPEVTCVVVDVSHEDPEVQFKWYVDGVEVHNAKTKPREEQYNSTFRVVSVLTVLHQDWLNGKEYKCKVSNKALPAPIEKTISKTKGQPREPAVYTLPPSREEMTKNQVKLVCLVTGFYPSDIAVEWESSGQPENNYYTTPPMLDSDGSFSLVSWLNVDKSRWQQGNIFSCSVMHEALHNRFTQKSLSLSPG
chain 3: EVQLVESGGGLVQPGGSLRLSCAASGFTFNTYAMNWVRQAPGKGLEWVARIRSKYNNYATYYADSVKGRFTISRDDSKNTLYLQMNSLRAEDTAVYYCVRHGNFGNSYVSYFAYWGQGTTVTVSSGGGGSGGGGSGGGGSEIVVTQSPATLSVSPGERATLSCRSSTGAVTESNYANWVQEKPGQAFRGLIGGANKRAPGVPARFSGSLSGDEATLTISSLQSEDFAVYYCALFYSNTWVFGQGTKLEIKGGGGTDKTHTCPPCPAPEAAGGPSVFLFPPKPKDTLMISRTPEVTCVVVDVSHEDPEVKFNWYVDGVEVHNAKTKPREEQYNSTYRVVSVLTVLHQDWLNGKEYKCKVSNKALPAPIEKTISKAKGQPREPEVATFPPSRDELTKNQVTLVCLVTGFYPSDIAVEWESNGQPENNYKTDPPLLESQGSFALSSRLRVDKSRWQQGNVFSCSVMHEALHNHYTQKSLSLSPG
PA Eluate (reference)
  Relative potency (%): 100%
High pH treatment, t0
  Relative potency (%): 114%
High pH treatment, t1 h
  Relative potency (%): 71.7%
High pH treatment, t2 h
  Relative potency (%): 88.5%
